The target of the test is SARS-COV-2 RBD quantum dots (QD608-RBD) (SARS-COV-2, UniProt P0DTC2 319-541). In words: cell-based or functional assay.

From patent US20240401239A1 (US Dept. of Health and Human Services, published 2024) come the findings set out here.

B1: single-domain antibody RBD-1-2G (VHH)
VHH: EVQLVESGGGLVQPGGSLRLSCAASGFSSIVYMGWFRQAPGKGRELVAAIDASGSTTNYPDSVEGRFTISRDNAKRMVYLQMNSLRAEDTAVYYCAIAYFTSPEYVVSQGWGQGTQVTVSS
notes: also called RBD-1-2G Nb; RBD-1-2G nanobody
For the molecule B1, the “IC50, QD608-RBD endocytosis assay on ACE2-GFP HEK293T cells” value worked out at 390 nM.

B2: RBD-1-2G-Fc (Fc fusion)
chain: EVQLVESGGGLVQPGGSLRLSCAASGFSSIVYMGWFRQAPGKGRELVAAIDASGSTTNYPDSVEGRFTISRDNAKRMVYLQMNSLRAEDTAVYYCAIAYFTSPEYVVSQGWGQGTQVTVSS
notes: also called bivalent format of RBD-1-2G
Regarding B2, the “IC50, QD608-RBD endocytosis assay on ACE2-GFP HEK293T cells” value came out at 14 nM.
